Laboratory results as given in article PMC8626775, “Anti-schistosomal activities of quinoxaline-containing compounds: From hit identification to lead optimisation” (European Journal of Medicinal Chemistry, 2021).

How the values were obtained:
S. mansoni schistosomula = S. mansoni schistosomula high-throughput phenotype and motility screen (Roboworm), 72 h; type: cell-based, Schistosoma mansoni; conditions: 38 versus 29; 22a versus 22
Procedure: Cercariae derived from the NMRI ([…]) Puerto Rican strain (PR-1) of S. mansoni were shed from two Biomphalaria glabrata strains, the NMRI albino and pigmented outbred strains, under intensified lighting conditions (1 h of incubation at 26 °C). Cercariae were then mechanically transformed into schistosomula as previously described.
High-throughput screening (HTS) of selected compounds was conducted as previously described. Briefly, newly transformed schistosomula were distributed in a 384-well tissue culture plate (PerkinElmer, cat 6007460, seeding density of 120 parasites/well). Each compound (at a single concentration or two-fold titrations) was transferred into individual wells alongside the positive and negative controls (AUR at 10 μM final concentration in 0.625% DMSO and 0.625% DMSO, respectively). Schistosomula/compound co-cultures were then incubated at 37 °C for 72 h in a humidified atmosphere containing 5% CO2. Following the co-culture period, automatic assessment of compound-induced schistosomula motility and phenotypic changes were conducted with the high-content imaging platform Roboworm using the image analysis model previously described by Paveley et al..

HepG2 cells = test: HepG2 MTT cytotoxicity assay
Procedure: Initially the cells were handled under sterile conditions and grown at 37 °C in a humidified atmosphere containing 5% CO2. Cytotoxicity was evaluated by way of a 3-(4, 5- dimethylthiazol-2-yl)-2,5-diphenyl tetrazolium bromide (MTT) assay as previously described. The cells were counted in a dual chamber counting slide using the BIORAD TC-10 Automated cell counter, seeded in a 96-well plate (Fisher Scientific, Loughborough, UK) at a density of 2 × 10^4 cells/well and incubated in an atmosphere of 5% CO2 at 37 °C. […] The absorbance readings (at 570 nm) of the soluble formazan crystals were recorded using PolarStar Omega plate reader (BMG-Labtech). […] The latter was used to calculate the selectivity index (SI) of the compounds presented herein.

For `Nc1ccc2nc(Nc3ccc(Cl)c(Cl)c3)c(Nc3ccc(Cl)c(Cl)c3)nc2c1` [Compound 22a, N^2, N^3-bis(3,4-dichlorophenyl)quinoxaline-2,3,6-triamine], the “Fold decrease of anti-schistosomal activity relative to the 6-nitro analogue” value (S. mansoni schistosomula) was “approximately 10 fold”.
“N2, N3-bis(4-bromophenyl)quinoxaline-2,3-diamine [Compound 38, reference compound]” was tested, and the “Selectivity Index (SI) Adult worms” value (HepG2 cells; HepG2 CC50 versus adult worm EC50) was 28.65, the “Selectivity Index (SI) Somula” value (HepG2 cells; HepG2 CC50 versus schistosomula EC50) was 1.90 and the “Fold decrease of anti-schistosomal activity relative to the 6-nitro analogue” value (S. mansoni schistosomula) was 4 fold.
